Molecules are shown by their SMILES.

These results are taken from paper PMC8279492, “Quinolinonyl Non-Diketo Acid Derivatives as Inhibitors of HIV-1 Ribonuclease H and Polymerase Functions of Reverse Transcriptase” (Journal of Medicinal Chemistry, 2021).

For one series, the system named is HIV-1 replication. Kind of series: HIV-1 replication in HeLa-CD4-LTR-β-gal reporter cells. Type of series: cell-based. The settings on record: supplement CSV; ratio CC50 / EC50. As to the method:
HIV-1 replication was monitored using HeLa-CD4-LTR-β-gal reporter cells as previously described.[69] Briefly, β-galactosidase activity was monitored 24 h post infection using a replication-competent HIV produced in-house (H9-laï coculture) and a serial dilution of molecules or an equivalent volume of DMSO. In parallel, compounds’ toxicity was determined at 24 h in the same cell line using CellTiter 96 AQueous One Solution Cell Proliferation Assay (Promega, France).

In the next series the test system is Q475A HIV-1 RT RNase H. Nature of the series: RNase H assay, point-mutant Q475A RT. Format: biochemical. As to the method:
(§1) An activity curve was performed for all of the enzymes (Figure S1), and a concentration was chosen in the linear dose-response range to perform the enzymatic-inhibition assays.
(§2) Amino acid substitutions were introduced into the p66 HIV-1 RT subunit of a HIV-1 RT using a QuikChange mutagenesis kit, following the manufacturer’s instructions (Agilent Technologies Inc., Santa Clara, CA).
(§3) The HIV-1 RT-associated RNase H activity was measured as described.[68] Briefly, the reaction was carried out in a black 96-well plate in a total volume of 100 μL. […] Experiments were performed in duplicate and replicated at least two times. Data were analyzed as described.[36]

The next series concerns Y501A HIV-1 RT RNase H. Nature of the series: RNase H assay, point-mutant Y501A RT. Format: biochemical. As to the method:
as §1, §2, §3

Turning to `O=C(/C=C/c1ccc2c(c1)c(=O)c(C(=O)O)cn2Cc1ccc(F)cc1)c1ccccc1` [4k, (E)-1-(4-Fluorobenzyl)-4-oxo-6-(3-oxo-3-phenylprop-1-en-1-yl)-1,4-dihydroquinoline-3 carboxylic Acid], the SI in the series on HIV-1 replication worked out at 3.1.
For `O=C(O)c1cn(Cc2ccc(F)cc2)c2ccc(OCc3ccccc3)cc2c1=O` [4l, 6-(Benzyloxy)-1-(4-fluorobenzyl)-4-oxo-1,4-dihydroquinoline-3-carboxylic Acid], the SI in the series on HIV-1 replication is listed as over 8.6.
Turning to `O=C(O)c1cn(Cc2ccc(F)cc2)c2ccc(OCc3cccc(Cl)c3Cl)cc2c1=O` [4m, 6-((2,3-Dichlorobenzyl)oxy)-1-(4-fluorobenzyl)-4-oxo-1,4-dihydroquinoline-3-carboxylic Acid], the SI with HIV-1 replication is given as over 15.
As for `O=C(O)c1cn(Cc2ccc(F)cc2)c2ccc(OCc3ccc(Cl)c(Cl)c3)cc2c1=O` [4n, 6-((3,4-Dichlorobenzyl)oxy)-1-(4-fluorobenzyl)-4-oxo-1,4-dihydroquinoline-3-carboxylic Acid], the SI in the series on HIV-1 replication is recorded as over 12.4.
Same read-out and setting: to `O=C(O)c1cn(Cc2ccc(F)cc2)c2ccc(OCc3ccc4c(c3)OCO4)cc2c1=O` [4q, 6-(Benzo[d][1,3]dioxol-5-ylmethoxy)-1-(4-fluorobenzyl)-4-oxo-1,4-dihydroquinoline-3-carboxylic Acid] belongs over 17.7.
As to `O=C(O)c1cn(Cc2ccc(F)cc2)c2ccc(OCc3ccc(-c4ccccc4)cc3)cc2c1=O` [4s, 6-([1,1′-Biphenyl]-4-ylmethoxy)-1-(4-fluorobenzyl)-4-oxo-1,4-dihydroquinoline-3-carboxylic Acid], in the series on HIV-1 replication, the SI was over 40.
For the compound `O=C(O)c1cn(Cc2ccc(F)cc2)c2ccc(OCc3ccc(OCc4ccccc4)cc3)cc2c1=O` [4t, 6-((4-(Benzyloxy)benzyl)oxy)-1-(4-fluorobenzyl)-4-oxo-1,4-dihydroquinoline-3-carboxylic Acid], in the series on HIV-1 replication, the SI was over 57.8. For the same compound, the “Fold increase in IC50 compared to wt RT, Q475A” value in the series with Q475A HIV-1 RT RNase H stood at 8.2 fold. In addition, in the series on Q475A HIV-1 RT RNase H (supplement CSV, vs wt), the “Q475A (Fold)” value came out at 8.2. The “Fold increase in IC50 compared to wt RT, Y501A” value in the series on Y501A HIV-1 RT RNase H is reported as over 52.4 fold. The “Y501A (Fold)” value in the series with Y501A HIV-1 RT RNase H (supplement CSV, vs wt) was over 52.4.
Take `CCOC(=O)c1cn(Cc2ccc(F)cc2)c2ccc(OCc3cccc(Cl)c3Cl)cc2c1=O` [5m, Ethyl 6-((2,3-Dichlorobenzyl)oxy)-1-(4-fluorobenzyl)-4-oxo-1,4-dihydroquinoline-3-carboxylate]: in the series with HIV-1 replication, the SI was found to be 1.2.
As for `CCOC(=O)c1cn(Cc2ccc(F)cc2)c2ccc(OCc3ccc(Cl)c(Cl)c3)cc2c1=O` [5n, Ethyl 6-((3,4-Dichlorobenzyl)oxy)-1-(4-fluorobenzyl)-4-oxo-1,4-dihydroquinoline-3-carboxylate], the SI with HIV-1 replication turned out to be 1.4.
On the same count and under the same terms, the same measure for `CCOC(=O)/C=C/C(=O)/C=C/c1cccn1Cc1ccccc1Cl` [compound 11, reference compound]: over 13.7.
